Record: PubChem BioAssay AID1259414 (Drosophila RNAi Screening Center, 2018)
Aim: 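Fly genes that alter Wolbachia amount inside host cells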 (primary screen). Cells: Drosophila JW18 cells infected with Wolbachia. Reagents: long dsRNA against Drosophila genes, 0.25 µg dsRNA per well of a 384-well plate. Timing: 5 days. Treatment: cells persistently infected with Wolbachia before knock-down; no added drug. Detection: 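Automated imaging of bacterial rRNA staining divided by host cell count, reported as plate-normalised robust z-score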. Reading the numbers: Wolbachia per cell robust z: higher = more Wolbachia per host cell than the plate typical. Rule for the call: 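Active if absolute robust z reaches 1.5 in two or more of three replicates, leaving out multi- or no-target dsRNAs, genes unexpressed in JW18 and A1 wells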.
In all, the deposit lists about 24,000 reagents; this is a random part of those with a known target gene and a result. Of all reagents, about 1,210 (5%) are marked active. 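Inactive calls also include excluded dsRNAs with several or no targets, genes unexpressed in JW18, and well A1, regardless of score.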 A number with no mark means an inactive call. Names joined by + are all predicted targets of the reagent.

no.	Gene	PubChem SID	Wolbachia per cell robust z, rep 1	Wolbachia per cell robust z, rep 2	Wolbachia per cell robust z, rep 3
1	CG18557	SID104216507	-1.74	-3.12	-2.8
2	Sfxn1-3	SID104191975	1.18	1.05	-5.85
3	Sfp33A1	SID104218211	0.108	-1.45	1.62
4	CG12065	SID104197590	0.831	0.467	-0.468
5	CG12065	SID104197591	0.555	-2.93	0.555
6	CG34215	SID104216272	0.282	-2.15	-0.0611
7	CG6961 + CG18259	SID104199591	-0.301	-1.06	0.157
8	CG6961 + CG18259	SID104205393	0.241	0.27	0.391
9	CR14117	SID104189913	0.862	0.799	-0.223
10	CR14117	SID104204494	-0.822	0.0118	-2.11
11	CG11035	SID104194079	-0.825	-0.201	-0.555
12	GluRIID	SID104196515	0.346	0.796	0.489
13	GluRIID	SID104203444	0.305	0.676	0.00617
14	zip	SID104184517	-2.18 (active)	0.565	-1.95
15	zip	SID104201943	0.116	0.0346	0.458
16	zip	SID104206960	0.573	0.344	1.4
17	Hsepi	SID104184778	0.0191	0.00721	-1.08
18	Hsepi	SID104204633	0.354	0.459	1.26
19	CG10337	SID104181830	-0.598	0.603	0.152
20	DIP-iota	SID104181932	1.52	0.444	1.21
21	DIP-iota	SID104202966	1.22	1.52	1.13
22	CG8245	SID104184693	0.97	0.627	0.838
23	Atg16	SID104194844	-1.61	0.851	0.477
24	Atg16	SID104195092	0.375	-3.39	0.309
25	Atg16	SID104195167	0.198	0.464	0.934
26	CG1552	SID104199457	-0.377	-0.449	-0.557
27	CG1552	SID104204078	0.553	1.82	1.21
28	Ir40a	SID104183524	0.129	-0.0714	-0.296
29	Ir40a	SID104183525	0.629	-3.03	1.26
30	bur	SID104182955	-2.02	0.739	0.689
31	CG32189 + CG32188	SID104207354	-1.03	-0.533	0.341
32	Delta	SID104196440	-0.475	-1.64	-1.31
33	Delta	SID104203034	1.03	1.89	-0.122
34	Sfp51E	SID104218188	0.833	-0.259	-0.376
35	Sfp51E	SID104218989	0.425	0.309	0.839

Reagents listed so far marked active, once more:
Gene	PubChem SID	Wolbachia per cell robust z, rep 1	Wolbachia per cell robust z, rep 2	Wolbachia per cell robust z, rep 3
zip	SID104184517	-2.18 (active)	0.565	-1.95

Continued:
no.	Gene	PubChem SID	Wolbachia per cell robust z, rep 1	Wolbachia per cell robust z, rep 2	Wolbachia per cell robust z, rep 3
36	CG13324 + CG13323	SID104207544	1.11	-6.97	-1.22
37	Lgr4	SID104198762	-4.38	-1.27	-10.9
38	Lgr4	SID104199676	0.679	-0.242	0.973
39	Lgr4	SID104203192	0.184	2.06	-1.09
40	Dh31	SID104181988	0.158	0.81	-0.86
41	CG16863	SID104181684	0.37	-2.05	1.03
42	CG33269	SID104190377	-0.552	-0.857	-0.122
43	CG42727 + CG42726	SID104194277	-0.283	-2.13	-0.179
44	CG42727 + CG42726	SID104205699	0.0334	0.516	0.797
45	Pepck2	SID104185805	0.924	1.07	1.09
46	Pepck2	SID104204711	0.0879	-1.83	0.422
47	Pepck2	SID104219113	-0.479	0.0147	-2.61
48	CG4676	SID104186671	0.492	0.0747	0.918
49	Nle	SID104180555	0.0505	-0.519	6.06
50	CR33701	SID104215458	-0.404	-1.26	-3.18
51	dpr2	SID104182162	-0.283	0.368	-0.561
52	dpr2	SID104182163	-0.718	-0.391	-0.769
53	CG10177	SID104193993	0.503	-0.284	1.56
54	CG10177	SID104206432	-0.194	1.7	-0.646
55	CG10177	SID104219140	0.439	0.621	-1.47
56	AGO1	SID104185704	-0.0129	1.02	0.926
57	AGO1	SID104216734	0.821	1.01	0.0515
58	glo	SID104195937	0.354	0.808	1.9
59	glo	SID104206351	-1.02	1.38	1.02
60	CG15283	SID104181772	0.455	0.0805	-1.25
61	CG15283	SID104219056	-0.458	0.193	1.6
62	Noc3	SID104192327	-0.232	0.71	0.281
63	Ir67b	SID104189668	-1.01	-1.26	-0.0337
64	Mlc2	SID104196533	0.02 (active)	-3.41	-1.75
65	Mlc2	SID104207422	-0.625	-0.497	-0.7
66	CG34235 + CG30058 + CG34312	SID104201693	-1.24	-1.06	0.0842
67	mtDNA-helicase	SID104182704	-0.677	-5.01	-0.0534
68	NAT1	SID104186646	0.852 (active)	-7.36	-8.12
69	NAT1	SID104208597	0.92	0.436	0.826
